Assay results from article PMC3662775, “Transient Oligomerization of the SARS-CoV N Protein – Implication for Virus Ribonucleoprotein Packaging” (PLoS ONE, 2013).

Target: the molecule itself
Assay: cross-linking + SEC

B1: SARS-CoV N protein C-terminal structural domain (CTD, res. 248–365), wild type (domain or fragment)
chain: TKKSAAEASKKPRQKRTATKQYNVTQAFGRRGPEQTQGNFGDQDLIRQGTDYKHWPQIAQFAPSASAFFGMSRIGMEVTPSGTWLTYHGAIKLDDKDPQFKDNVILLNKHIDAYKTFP
Q: B1 was tested. Which “stoichiometry N” value did it give?
A: Its value is 2.
